Anti-infective test results gathered from many reports (values: NIAID ChemDB through PubChem).

Shared fields: target-level tests; species: HIV-1; target: Reverse transcriptase; method: nucleotide incorporation / radiometric; endpoint: fold resistance

Conditions beyond the fields shown may differ between rows.

CCN1c2ncc(CCOc3ccc(CC(C)C(=O)O)c4ccccc34)cc2C(=O)Nc2c(C)cc(Cl)nc21 ; changes: RT-K103N Y181C ; result: 1–10
CCOCn1c(Cc2ccccc2)c(C(C)C)c(=O)[nH]c1=O ; changes: RT-V106A ; result: 11
CCN1c2ncc(CCOc3ccc(CCC(=O)O)c4ccccc34)cc2C(=O)N(C)c2ccc(C)nc21 ; changes: RT-Y188L ; result: >10
CCC1(c2cccc(N)c2)Oc2ccccc2-n2cccc2C1=O ; changes: RT-Y188L ; result: >33.3
COc1ccc(CSc2nc(Cc3c(F)cccc3F)c(C)c(=O)[nH]2)cc1 ; changes: RT-181I ; result: >57142
Nc1ncnc2c1ncn2CCOCP(=O)(O)OP(=O)(O)OP(=O)(O)O ; changes: RT-A62V V75I F77L F116Y Q151M ; result: 2.38
CCC1(c2ccc(Cn3ccsc3=N)cc2)Oc2ccccc2-n2cccc2C1=O ; changes: RT-Y188L ; result: >6.25
CCOc1ccc(CSc2nc(Cc3c(Cl)cccc3Cl)c(C)c(=O)[nH]2)cc1 ; changes: RT-181I ; result: >200
CCC1(c2cccc(COc3ccccc3)c2)Oc2ccccc2-n2cccc2C1=O ; changes: RT-V106A ; result: 10.4
CCN1c2ncc(CCOc3cccc4c3CCCN4CC(=O)O)cc2C(=O)N(C)c2cccnc21 ; changes: RT-K103N Y181C ; result: >10
CCC1(c2cccc(I)c2)Oc2ccccc2-n2cccc2C1=O ; changes: RT-Y181I ; result: >200
Cc1c(Cc2c(Cl)cccc2Cl)nc(SCc2ccc(O)cc2)[nH]c1=O ; changes: RT-181I ; result: ~1
CCC1(c2ccc(COc3ccccc3)cc2)Oc2ccccc2-n2cccc2C1=O ; changes: RT-Y188L ; result: 15.3
Cc1c(Cc2c(F)cccc2F)nc(SCc2ccc(C(C)C)cc2)[nH]c1=O ; changes: RT-K103N ; result: >133
CCN1c2ncc(CCOc3ccc(C(=O)O)c4ccccc34)cc2C(=O)N(C)c2cccnc21 ; changes: RT-Y188L ; result: >10
O=C(O)Cn1cnc2c(=O)[nH]c(NC(=O)OCc3ccccc3)nc21 ; changes: K103N ; strain or isolate: NNRTI-resistant ; result: 8.2
CCN1c2ncc(CCOc3ccc(CCC(=O)O)c4ccccc34)cc2C(=O)Nc2c(C)ccnc21 ; changes: RT-K103N Y181C ; result: >10
Nc1ccn([C@H]2CC[C@@H](COP(=O)(O)OP(=O)(O)OP(=O)(O)O)O2)c(=O)n1 ; changes: RT-A62V V75I F77L F116Y Q151M ; result: 5.19
Cc1c(Cc2c(Cl)cccc2Cl)nc(S(=O)(=O)Cc2ccc([N+](=O)[O-])cc2)[nH]c1=O ; changes: RT-181I ; result: ~1
O=C(O)Cn1cnc2c(Oc3ccccc3[N+](=O)[O-])nc(NC(=O)OCc3ccccc3)nc21 ; changes: L100I ; strain or isolate: NNRTI-resistant ; result: 14.3
Nc1nc2c(ncn2[C@H]2CC[C@@H](COP(=O)(O)OP(=O)(O)OP(=O)(O)O)O2)c(=O)[nH]1 ; changes: RT-P225H ; result: 0.66
Cc1cn([C@H]2CC[C@@H](COP(=O)(O)OP(=O)(O)OP(=O)(O)O)O2)c(=O)[nH]c1=O ; changes: RT-I132M ; result: 0.6
CC(C)=CCN1Cc2cc(Cl)cc3[nH]c(=O)n(c23)C[C@@H]1C ; changes: RT-V106A P225H ; result: 68
Nc1ncnc2c1ncn2[C@@H]1O[C@H](COP(=O)(O)OP(=O)(O)OP(=O)(O)O)C[C@@H]1F ; changes: RT-M184V ; result: 0.96
CC(C)=CCOc1cc(NC(=S)c2ccoc2C)ccc1Cl ; changes: RT-V106A ; result: 19
Cc1c(Cc2c(F)cccc2F)nc(SCc2ccc(C#N)cc2)[nH]c1=O ; changes: RT-K103N ; result: >526
CCC1(c2ccc(CNc3cccc(F)c3)cc2)Oc2ccccc2-n2cccc2C1=O ; changes: RT-Y188L ; result: >25
CCCCOc1ccc(CSc2nc(Cc3c(Cl)cccc3Cl)c(C)c(=O)[nH]2)cc1 ; changes: RT-K103N ; result: >142.8
Cc1cn([C@H]2C=C[C@@H](COP(=O)(O)OP(=O)(O)OP(=O)(O)O)O2)c(=O)[nH]c1=O ; changes: RT-T215Y ; result: 2.4
CCC1(c2cccc(Cl)c2)Cc2ccccc2-n2cccc2C1=O ; changes: RT-V106A ; result: 3
COc1cc(CSc2nc(Cc3c(F)cccc3F)c(C)c(=O)[nH]2)cc(OC)c1 ; changes: RT-181I ; result: ~1

4 of the rows above, restated:

structure | changes | strain or isolate | result
CCOc1ccc(CSc2nc(Cc3c(Cl)cccc3Cl)c(C)c(=O)[nH]2)cc1 | RT-181I | - | >200
CCC1(c2ccc(Cn3ccsc3=N)cc2)Oc2ccccc2-n2cccc2C1=O | RT-Y188L | - | >6.25
Cc1c(Cc2c(Cl)cccc2Cl)nc(SCc2ccc(O)cc2)[nH]c1=O | RT-181I | - | ~1
CCC1(c2cccc(I)c2)Oc2ccccc2-n2cccc2C1=O | RT-Y181I | - | >200

An empty or dashed field is not shown. Fold resistance has wild type as its base. Two numbers with a dash give a range or band.